Pooled drug test results. Numbers come from NIAID ChemDB, via PubChem.

All rows: tests in culture; organism: Candida parapsilosis

A number after MIC or MFC names an inhibition level or a share of isolates. a–b is a range or a potency band. ECn is the concentration giving n% inhibition of infection, replication or growth. An empty or dashed field is not shown. Rows are shuffled and stem from different studies.

COc1cc(C[C@@]2(O)CO[C@H](c3ccc(O)c(OC)c3)[C@H]2CO[C@@H]2O[C@@H](CO)[C@@H](O)[C@H](O)[C@H]2O)ccc1O ; method: MTT ; read-out: MIC ; strain or isolate: ATCC 22019 ; value: 1.5 µg/mL
CN(C/C=C/C#CC(C)(C)C)Cc1cccc2ccccc12 ; method: broth dilution ; read-out: MIC90 ; strain or isolate: 52 clinical isolates ; value: >16 µg/mL
C1=C(c2cc3ccccc3o2)C2CCN1CC2 ; method: broth dilution ; read-out: EC50 ; strain or isolate: ATCC 22019 ; value: >16 µg/mL
O=Cc1cc(O)ccc1O ; method: broth dilution / turbidity ; read-out: EC50 ; strain or isolate: PYCC 2545 ; value: 0.68 µM
C[C@@H]1[C@H](O)[C@@H](C)/C=C/C=C/C=C/C=C/C=C/C=C/C=C/[C@H](OC2O[C@@H](C)[C@H](O)[C@@H](N)[C@H]2O)C[C@@H]2OC(O)(C[C@@H](O)C[C@@H](O)[C@H](O)CC[C@@H](O)C[C@@H](O)CC(=O)C[C@H]1C)C[C@H](O)[C@H]2C(=O)O ; read-out: MIC ; strain or isolate: MTCC 1744 ; value: 300 µg/mL
C1=C(c2cnc3ccccc3c2)C2CCN1CC2 ; method: broth dilution ; read-out: EC50 ; strain or isolate: ATCC 22019 ; value: >16 µg/mL
C[N+]1=CC2C(=O)c3nccc4ccnc(c34)C2C1 ; read-out: MIC80 ; value: >64 µg/mL
C=CCc1ccc(OC)cc1 ; read-out: MIC90 ; value: 0.016–0.025 µg/mL
O=c1cc(-c2ccccc2)oc2cc(O)c(O)c(O)c12 ; read-out: MIC ; strain or isolate: 153.07 ; value: 13 µg/mL
Cc1ccc(C(C)C)c(O)c1 ; method: broth dilution / turbidity ; read-out: EC50 ; strain or isolate: ATCC 22019 ; value: 0.34 µM
C=CCSS(=O)CC=C ; method: broth dilution ; read-out: MIC ; value: 320 µg/mL
C[C@@H](c1ncncc1F)[C@](O)(Cn1cncn1)c1ccc(F)cc1F ; method: broth dilution ; read-out: MIC90 ; strain or isolate: 52 clinical isolates ; value: 0.062 µg/mL
C1=C(c2cc3ccccc3s2)C2CCN1CC2 ; method: broth dilution ; read-out: EC50 ; strain or isolate: ATCC 22019 ; value: >16 µg/mL
CCC(C)CC(C)CCCCCCCCC(=O)N[C@H]1C[C@@H](O)[C@H](NCCN)NC(=O)[C@@H]2[C@@H](O)CCN2C(=O)[C@H]([C@H](O)CCN)NC(=O)[C@H]([C@H](O)[C@@H](O)c2ccc(O)cc2)NC(=O)[C@@H]2C[C@@H](O)CN2C(=O)[C@H]([C@@H](C)O)NC1=O ; method: broth dilution ; read-out: MIC ; strain or isolate: 1529A ; value: 1 µg/mL
O=C(O)c1ccccc1 ; read-out: EC50 ; strain or isolate: PYCC 2545 ; value: 0.13 µM
C1=C(c2ccc3ccccc3c2)C2CCN1CC2 ; method: broth dilution ; read-out: EC50 ; strain or isolate: ATCC 22019 ; value: >16 µg/mL
O=c1c(O)c(-c2ccccc2)oc2cc(O)cc(O)c12 ; method: broth dilution ; read-out: MIC ; value: 40 µg/mL
C[C@H](Cc1ccc(O)c(O)c1)[C@@H](C)Cc1ccc(O)c(O)c1 ; method: broth dilution ; read-out: MIC80 ; strain or isolate: CCC 124-2000 ; value: 250 µg/mL
c1ccc([Se][Se]c2ccccc2)cc1 ; method: broth dilution ; read-out: MIC ; strain or isolate: ATCC 90018 ; value: >64 µg/mL
CC(C)OC(=O)c1ccc(C2=CN3CCC2CC3)cc1 ; method: broth dilution ; read-out: EC50 ; strain or isolate: ATCC 22019 ; value: >16 µg/mL
O=[N+]([O-])c1ccc(CNC2CCc3c(O)cccc3C2)cc1 ; read-out: MIC ; value: >64 µM

A second listing of 2 rows from above:

smiles,method,read-out,strain or isolate,value
C[C@@H]1[C@H](O)[C@@H](C)/C=C/C=C/C=C/C=C/C=C/C=C/C=C/[C@H](OC2O[C@@H](C)[C@H](O)[C@@H](N)[C@H]2O)C[C@@H]2OC(O)(C[C@@H](O)C[C@@H](O)[C@H](O)CC[C@@H](O)C[C@@H](O)CC(=O)C[C@H]1C)C[C@H](O)[C@H]2C(=O)O,,MIC,MTCC 1744,300 µg/mL
C1=C(c2cc3ccccc3s2)C2CCN1CC2,broth dilution,EC50,ATCC 22019,>16 µg/mL